Experimental data: PubChem BioAssay AID624099 (ICCB-Longwood, 2012)
Purpose: 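Knock-downs relieving repression by E2 of an HPV18 LCR luciferase reporter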 (primary screen). System: human C33A cervical carcinoma cells (HPV-negative) stably expressing BPV1 E2 and an HPV18 LCR luciferase reporter. Knock-down reagent: siRNA pool against human genes, 40 nM. Timing: 72 h. Measured: 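HPV18 LCR reporter light per well, converted to plate-wise z-scores that exclude control wells, and averaged over triplicate plates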. Reading the numbers: mean z-score and z-score: higher = stronger reporter signal, weaker E2 silencing. Active means: 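Mean z ≥ 2 together with z ≥ 2 in two or more of the three replicates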.
This is one part, drawn at random, of about 21,000 deposited reagents. Over the whole deposit, 497 (2.4%) got an active call. 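Higher z means weaker E2 silencing; only reporter increases were scored, and knock-downs that hurt cell survival may mask genuine repressor factors.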 Entries without a mark were called inactive.

| gene | mean z-score | z-score, replicate A | z-score, replicate B | z-score, replicate C |
| --- | --- | --- | --- | --- |
| LOC387761 (retired record) (GeneID 387761) | -0.93 | -0.79 | -0.85 | -1.14 |
| OR2L13 (GeneID 284521) | 0.14 | 0.26 | 0.27 | -0.11 |
| SLC22A25 (GeneID 387601) | 0.13 | 0.69 | -0.13 | -0.16 |
| CNEP1R1 (GeneID 255919) | 0.91 | 0.8 | 0.57 | 1.35 |
| VCPKMT (GeneID 79609) | 0.05 | -0.05 | 0.13 | 0.09 |
| LOC390338 (retired record) (GeneID 390338) | 0.16 | 0.2 | 0.14 | 0.14 |
| GORASP1 (GeneID 64689) | 0.21 | 0.26 | 0.33 | 0.04 |
| FUNDC1 (GeneID 139341) | -0.54 | -0.59 | -0.8 | -0.23 |
| FFAR1 (GeneID 2864) | -0.54 | -0.74 | -0.52 | -0.36 |
| OR9G4 (GeneID 283189) | 0.55 | 0.91 | 0.37 | 0.37 |
| SND1-IT1 (GeneID 27099) | 1.07 | 1.02 | 1.35 | 0.85 |
| FAM215A (GeneID 23591) | -0.3 | -0.23 | -0.12 | -0.53 |
| CATSPER4 (GeneID 378807) | 1.13 | 1.22 | 0.98 | 1.19 |
| BTG3 (GeneID 10950) | 0.2 | 0.05 | 0.41 | 0.15 |
| ARPC2 (GeneID 10109) | 0.2 | 0.19 | 0.18 | 0.23 |
| VPS54 (GeneID 51542) | -0.9 | -0.55 | -1.33 | -0.81 |
| GRAPL-AS1 (GeneID 79999) | 2.26 (active) | 1.51 | 2.67 | 2.61 |
| CD52 (GeneID 1043) | 0.31 | 0.29 | 0 | 0.64 |
| DGUOK (GeneID 1716) | -0.15 | -0.17 | -0.11 | -0.17 |
| LRRC14B (GeneID 389257) | 0.66 | 0.66 | 0.29 | 1.03 |
| NEMF (GeneID 9147) | -0.62 | -0.83 | -0.71 | -0.33 |
| NF1 (GeneID 4763) | -0.66 | -0.59 | -0.63 | -0.75 |
| MACO1 (GeneID 55219) | 1.27 | 1.05 | 1.41 | 1.34 |
| ADARB2 (GeneID 105) | 0.41 | 0.35 | 0.36 | 0.52 |
| WDSUB1 (GeneID 151525) | 0.23 | 0.21 | 0.38 | 0.1 |
| GRAMD4 (GeneID 23151) | 0.21 | -0.02 | 0.06 | 0.59 |
| EDAR (GeneID 10913) | -0.57 | -0.68 | -0.59 | -0.45 |
| NFASC (GeneID 23114) | 1.06 | 1.18 | 0.93 | 1.09 |
| FAM3D (GeneID 131177) | -1.37 | -1.11 | -1.63 | -1.37 |
| ZNF596 (GeneID 169270) | -1.04 | -0.96 | -1.37 | -0.78 |
| RASL11B (GeneID 65997) | -0.35 | -0.47 | -0.03 | -0.54 |
| NEUROD4 (GeneID 58158) | -0.51 | -0.18 | -0.15 | -1.21 |
| SERPING1 (GeneID 710) | 1.32 | 1.24 | 1.23 | 1.48 |
| VSIG10 (GeneID 54621) | -0.49 | -0.18 | -0.61 | -0.68 |
| LOC389443 (retired record) (GeneID 389443) | 0.22 | 0.26 | 0.17 | 0.23 |
| C3orf80 (GeneID 401097) | 0.09 | -0.27 | -0.06 | 0.6 |
| DIMT1 (GeneID 27292) | 0.41 | 0.32 | 0.4 | 0.51 |
| CTSE (GeneID 1510) | -0.9 | -0.71 | -1.1 | -0.88 |
| AIF1L (GeneID 83543) | -0.6 | -0.67 | -0.41 | -0.72 |

3 entries already listed, sorted by “z-score, replicate A”, ascending.
| gene | mean z-score | z-score, replicate A | z-score, replicate B | z-score, replicate C |
| --- | --- | --- | --- | --- |
| VPS54 (GeneID 51542) | -0.9 | -0.55 | -1.33 | -0.81 |
| ARPC2 (GeneID 10109) | 0.2 | 0.19 | 0.18 | 0.23 |
| GRAPL-AS1 (GeneID 79999) | 2.26 (active) | 1.51 | 2.67 | 2.61 |
